Compound potency records, mixed from different reports. Data source: NIAID ChemDB in PubChem.

Shared fields: tests in culture; organism: Herpes simplex virus 1; method: plaque count; measure: EC50

An empty or dashed field is not shown. a–b is a range or a potency band. Lines come from different laboratories, so protocols vary. ECn is the concentration giving n% inhibition of infection, replication or growth.

SMILES | strain | cells | setting | result
Nc1nc2c(ncn2CCC(CO)CO)c(=O)[nH]1 | SC16 | MRC-5 |  | 0.8 µg/mL
CSc1nsc(-c2ccc(OCc3ccccc3)cc2)c1C#N | F strain | VERO |  | >50 µM
O=C(Cc1cnc2[nH]c3ccccc3n2c1=O)c1ccccc1 | KOS | HEF |  | >8 µg/mL
O=C1C2=C(SCCS2)C(=O)N1CCCCN1CCN(c2ccc(F)cc2)CC1 |  | VERO 76 |  | 19 µM
Nc1nc2c(ncn2[C@@H]2O[C@H](COP(=O)(O)CC(=O)O)[C@@H](O)[C@H]2O)c(=O)[nH]1 | HFEM | VERO |  | >2000 µM
N=c1ncn(Cc2cccc([N+](=O)[O-])c2)c2nc[nH]c12 |  | BSC-1 |  | >50 µg/mL
O=C1CC(c2ccccc2)n2nc(-c3ccc4ccccc4c3)nc2N1 | 7401H | VERO |  | >50 µg/mL
N=c1ncn(Cc2ccc(Cl)cc2Cl)c2nc[nH]c12 |  | BSC-1 |  | >25 µg/mL
Nc1nc2c(ncn2COC(CO)CO)c(=O)[nH]1 | 7294 (DRUG-resistant) | VERO H |  | 51.77 µM
O=C(O[C@@H]1O[C@@H]2COC(=O)c3cc(O)c(O)c(O)c3-c3c(cc(O)c(O)c3O)C(=O)O[C@H]2[C@@H]2OC(=O)c3cc(O)c(O)c(O)c3-c3c(cc(O)c(O)c3O)C(=O)O[C@@H]12)c1cc(O)c(O)c(O)c1 | HF | CV-1 |  | 0.044 µg/mL
Nc1ncnc2c1c(I)cn2COCCO |  | BSC-1 |  | 100 µM
N#Cc1cc(C(=O)O)c(=O)n2c1[nH]c1ccccc12 | KOS | HEF |  | >40 µg/mL
O=C(OC[C@H]1O[C@@H](OC(=O)c2cc(O)c(O)c(O)c2)[C@H](O)[C@@H](OC(=O)c2cc(O)c(O)c(O)c2)[C@@H]1O)c1cc(O)c(O)c(O)c1 | F | A549 |  | 0.061 µg/mL
CCCCCc1nc2n(n1)C(c1ccc(OC)cc1)CC(=O)N2 | 7401H | VERO |  | >50 µg/mL
COCc1cn([C@H]2C[C@H](O)[C@@H](CO)O2)c(=O)nc1N | KOS | VERO |  | 26 µM
N#Cc1c(-c2ccccc2)s[nH]c1=S | F strain | VERO |  | >60 µM
CCOP(=O)(OCC)C1=NOC(n2ccc(NC(C)=O)nc2=O)C1 |  | VERO |  | >200 µM
COc1ccc(C2CC(=O)Nc3nc(-c4ccncc4)nn32)cc1 | 7401H | VERO |  | >50 µg/mL
N#Cc1c(-c2cccs2)nc(SCc2ccccc2)[nH]c1=O | McIntyre | VERO |  | >20 µM
O=C1CC(c2ccccc2)n2nc(-c3cccnc3)nc2N1 | 7401H | VERO |  | >50 µg/mL
N#Cc1c(-c2ccc(Cl)cc2)nc(SCCCc2ccccc2)[nH]c1=O | McIntyre | VERO |  | >20 µM
Nc1nc2c(ncn2COCCO)c(=O)[nH]1 | KOS | VERO |  | 3.45 µg/mL
Cn1cc(CCCCOc2ccc(C3=NCCO3)cc2)cc1C=O |  | VERO |  | >280 µM
Cc1c(NC(=O)COCc2ccccc2)ccc2nc(N(C(C)C)C(C)C)oc(=O)c12 |  | VERO |  | 11.2 µM
CSc1nsc(-c2ccncc2)c1C#N | F strain | VERO |  | >2.5 µM
Nc1ncnc2c1ncn2[C@H]1C[C@H](O)[C@@H](COP(=O)(O)CC(=O)O)O1 | HFEM | VERO |  | >2000 µM
C=C(C)[C@@H]1CC[C@]2(CO)CC[C@]3(C)[C@H](CC[C@@H]4[C@@]5(C)CC[C@H](O)C(C)(C)[C@@H]5CC[C@]43C)[C@@H]12 | F | VERO |  | 0.4 µg/mL
O=c1[nH]c(=O)n([C@H]2C[C@H](O)[C@@H](CO)O2)cc1F | 77 | HELF |  | 55 µM
O=C1CC(c2ccc([N+](=O)[O-])cc2)n2nc(-c3cccnc3)nc2N1 | 7401H | VERO |  | >50 µg/mL
NC(=S)c1cn(COCCO)c2ncnc(N)c12 | E-377 | HFF |  | 21 µM
Cc1ccc(Cn2cnc(=N)c3[nH]cnc32)cc1 |  | BSC-1 |  | >50 µg/mL
O=C1CC(c2ccc([N+](=O)[O-])cc2)n2nc(-c3ccc4ccccc4c3)nc2N1 | 7401H | VERO |  | >50 µg/mL
Nc1nc2c(ncn2CCC(CO)CO)c(=O)[nH]1 | HFEM | MRC-5 |  | 0.5 µg/mL
O=C1CC(c2ccc([N+](=O)[O-])cc2)n2nc(C3CCCCC3)nc2N1 | 7401H | VERO |  | >50 µg/mL
CSc1nsc(-c2ccc3ccccc3c2)c1C#N | F strain | VERO |  | >20 µM
Nc1nc2c(ncn2/C=C2\CC2(CO)CO)c(=O)[nH]1 | E-377 | HFF |  | >380 µM
Nc1nc2c(ncn2CCCC(CO)CO)c(=O)[nH]1 | C42 | VERO |  | 0.3 µM
Nc1nc2c(ncn2COCCO)c(=O)[nH]1 | AP-resistant | VERO |  | >40 µg/mL
C=C(C)[C@@H]1CC[C@]2(C(=O)O)CC[C@]3(C)[C@H](CC[C@@H]4[C@@]5(C)CCC(=O)C(C)(C)[C@@H]5CC[C@]43C)[C@@H]12 | 7401H | VERO |  | 2.6 µg/mL
COC(=O)[C@H](C)NP(=O)(OCC1C/C1=C/n1cnc2c(N)ncnc21)Oc1ccccc1 |  | VERO |  | >1 µM
O=c1[nH]c(=O)n([C@@H]2O[C@H](CO)[C@@H](O)[C@@H]2O)cc1/C=C/Br | VR-3 | CCRF-HSV-B |  | 0.052 µg/mL
CCCCCCCCCCCCCCCCCCOCCOP(=O)(O)CO[C@H](CO)Cn1ccc(N)nc1=O |  | MRC-5 |  | 0.03 µM
CCOC(=O)c1ccc(OCCCCc2cc(C=O)n(C)c2)cc1 |  | VERO |  | >55 µM
N=c1ncn(Cc2ccco2)c2nc[nH]c12 |  | BSC-1 |  | >50 µg/mL
CCCCCCCCCCCCCCCCOCCCOP(=O)(O)CO[C@H](CO)Cn1ccc(N)nc1=O |  | MRC-5 |  | 0.08 µM
Nc1nc2c(ncn2CCCCO)c(=O)[nH]1 | 793-72 | VERO |  | 2 µM
CSc1nsc(-c2ccc[n+](C)c2)c1C#N | F strain | VERO |  | >1250 µM
O=C1CC(c2ccccc2)n2nc(-c3ccncc3)nc2N1 | 7401H | VERO |  | >50 µg/mL
O=c1[nH]c(=O)n([C@H]2C[C@H](O)[C@@H](CO)O2)cc1/C(F)=C(\F)Cl |  | VERO |  | >100 µg/mL
CC(C)CC(=O)N[C@H](C(=O)N[C@H](C(=O)N[C@@H](CC(C)C)[C@@H](O)CC(=O)N[C@@H](C)C(=O)N[C@@H](CC(C)C)[C@@H](O)CC(=O)O)C(C)C)C(C)C | Fukuda | CV-1 |  | >40 µM
C=Cc1cn(OCCO)c(=O)[nH]c1=O | KOSSB (TK-) | VERO |  | >50 µg/mL
C=Cc1c(C)c2cc3nc(c(C(=O)O)c4nc(cc5[nH]c(cc1[nH]2)c(C)c5CC)C(C)=C4C(=O)O)[C@@H](CCC(=O)O)[C@@H]3C |  | VERO | 1% FBS | 20.93 µM
CC(C)[C@H](NC(=O)[C@H](CCCN=C(N)N)NC(=O)N[C@@H](Cc1ccccc1)C(=O)O)C(=O)N[C@H](C=O)CCCN=C(N)N | Fukuda | CV-1 |  | 20–40 µM
CCCCCCCCCCCCCCCCCCOCCCOP1(=O)CO[C@@H](Cn2ccc(N)nc2=O)CO1 |  | MRC-5 |  | 0.5 µM
O=c1[nH]c(=O)n([C@H]2C[C@H](O)[C@@H](CO)O2)cc1C1=C(F)C(F)(F)C(F)(F)C(F)(F)C1(F)F |  | VERO |  | >100 µg/mL
C=Cc1cn([C@@H]2O[C@H](CO)[C@@H](O)[C@@H]2O)c(=O)[nH]c1=O | 77 | HELF |  | 0.08 µM
Nc1nc2c(ncn2CC[C@@H](O)CO)c(=O)[nH]1 | C42 | SIRC |  | 2.2 µM
Cc1cn([C@@H]2O[C@H](CO)[C@@H](O)[C@@H]2F)c(=O)[nH]c1=O | V3 | HELF |  | 0.09 µM
CCc1cn([C@H]2C[C@H](O)[C@@H](CO)O2)c(=O)[nH]c1=O | KOSSB (TK-) |  |  | >780 µM
O=c1[nH]c(=O)n([C@H]2C[C@H](O)[C@@H](CO)O2)cc1/C(F)=C(/F)Cl |  | VERO |  | >100 µg/mL

Again, the opening 7 rows:

SMILES,strain,cells,setting,result
Nc1nc2c(ncn2CCC(CO)CO)c(=O)[nH]1,SC16,MRC-5,,0.8 µg/mL
CSc1nsc(-c2ccc(OCc3ccccc3)cc2)c1C#N,F strain,VERO,,>50 µM
O=C(Cc1cnc2[nH]c3ccccc3n2c1=O)c1ccccc1,KOS,HEF,,>8 µg/mL
O=C1C2=C(SCCS2)C(=O)N1CCCCN1CCN(c2ccc(F)cc2)CC1,,VERO 76,,19 µM
Nc1nc2c(ncn2[C@@H]2O[C@H](COP(=O)(O)CC(=O)O)[C@@H](O)[C@H]2O)c(=O)[nH]1,HFEM,VERO,,>2000 µM
N=c1ncn(Cc2cccc([N+](=O)[O-])c2)c2nc[nH]c12,,BSC-1,,>50 µg/mL
O=C1CC(c2ccccc2)n2nc(-c3ccc4ccccc4c3)nc2N1,7401H,VERO,,>50 µg/mL